Results of unrelated studies side by side (data: NIAID ChemDB).

Common to all: target-level tests; agent: Pneumocystis carinii

ICn is the concentration giving n% inhibition. Blank or dashed fields: not listed here. Inhibition is in % at the dose shown (toxicity tests: loss of growth or viability). Rows are shuffled and stem from different studies.

smiles	measure	dose	protein	result
CC1(C)N=C(N)N=C(N)N1c1ccc(-c2ccc3cc(Cl)ccc3c2)cc1	IC50	-	DHFR	4.4 µM
N=C(N)c1ccc2[nH]c3ccc(C(=N)N)cc3c2c1	IC50	-	Ergosterol	>500 µM
CC(=O)NS(=O)(=O)c1ccc(NC(=O)c2ccccc2C(=O)O)cc1	IC50	-	DHPS	109 µM
C=CCN(C)CCCCCCOc1cc2oc(=O)ccc2cc1Br	IC50	-	Oxidosqualene cyclase	0.3 µM
COc1ccc(N2C(N)=NC(N)=NC2(C)C)c(OC)c1	IC50	-	DHFR	>90 µM
C=CCN(C)CC#CCCCCOc1ccc2ccc(=O)oc2c1C	IC50	-	Oxidosqualene cyclase	0.07 µM
Nc1nc2c(c(=O)[nH]1)C(c1ccc(Cl)cc1)C([N+](=O)[O-])O2	IC50	-	DHFR	21 µM
CC(=O)NS(=O)(=O)c1ccc(N=Nc2c(O)n(-c3ccccc3)n(-c3ccccc3)c2=O)cc1	IC50	-	DHPS	454.4 µM
C=CC[N+](C)([O-])CC#CCCCCOc1ccc2ccc(=O)oc2c1	IC50	-	Oxidosqualene cyclase	>10 µM
Nc1nc(N)c2c(Cl)c(Cl)ccc2n1	IC50	-	DHFR	9.7 µM
c1cc(-c2ccc(-c3ccc(C4=NCCN4)cc3)o2)ccc1C1=NCCN1	IC50	-	Ergosterol	310 µM
COc1cc(-c2coc3nc(N)nc(Cl)c23)cc(OC)c1OC	IC50	-	DHFR	>300 µM
NC(=NC1CCC1)c1ccc(-c2ccc(-c3ccc(C(N)=NC4CCC4)cc3)o2)cc1	IC50	-	Ergosterol	25 µM
Cc1cc(C)nc(/N=C(\N)Nc2ccc(S(=O)(=O)NC(=O)Nc3ccccc3)cc2)n1	IC50	-	DHPS	515.7 µM
COc1cc(N(C)Cc2csc3nc(N)nc(N)c23)cc(OC)c1OC	inhibition	10 µM	DHFR	<30%
COc1cccc(-c2coc3nc(N)[nH]c(=O)c23)c1	IC50	-	DHFR	50 µM
O=[N+]([O-])c1cc(S(=O)(=O)c2ccc(F)c([N+](=O)[O-])c2)ccc1F	IC50	-	DHPS	946.4 µM
Nc1nc(N)c2ccc(C(F)(F)F)cc2n1	IC50	-	DHFR	31 µM
C=CCN(C)CC#CCOc1ccc2ccc(=O)oc2c1	IC50	-	Oxidosqualene cyclase	1.12 µM
CC(C)N=C(N)c1ccc(-c2ccc(-c3ccc(C(N)=NC(C)C)cc3)o2)cc1	IC50	-	Ergosterol	14 µM
CC(C)C(=O)Nc1ccc(S(=O)(=O)Nc2ccc(N)cc2O)cc1	IC50	-	DHPS	53.9 µM
Nc1nc(N)c2nc(Cc3ccc(Cl)cc3)c(Cc3ccc(Cl)cc3)nc2n1	IC50	-	DHFR	5.9 µM
NC(=NCC1CC1)c1ccc(-c2ccc(-c3ccc(C(N)=NCC4CC4)cc3)o2)cc1	IC50	-	Ergosterol	21 µM
Nc1nc(N)c2nc(CCc3ccccc3)c(CCc3ccccc3)nc2n1	IC50	-	DHFR	4.9 µM
COc1ccc(OC)c(NCc2csc3nc(N)nc(N)c23)c1	IC50	-	DHFR	>10 µM
CN(C)CCCCCCCCCCOc1ccc2ccc(=O)oc2c1	IC50	-	Oxidosqualene cyclase	0.02 µM
COc1ccc(Cl)cc1-c1coc2nc(N)[nH]c(=O)c12	IC50	-	DHFR	9 µM
CCN(CC)CC#CCOc1ccc2ccc(=O)oc2c1	IC50	-	Oxidosqualene cyclase	1.85 µM
Nc1nc2occ(-c3cccc([N+](=O)[O-])c3)c2c(=O)[nH]1	IC50	-	DHFR	140 µM
Nc1nc(N)c2c(OCC(F)(F)F)cccc2n1	IC50	-	DHFR	13 µM
Nc1nc2c(c(=O)[nH]1)C(c1ccccc1)C([N+](=O)[O-])O2	IC50	-	DHFR	34 µM
CC(=O)Nc1ccc(C(=O)O)cc1	inhibition	100 µM	DHPS	44.8%
OCCN1CCN(CCOc2ccc(-c3ccccc3)cc2)CC1	inhibition	10 µM	Oxidosqualene cyclase	48%

A second listing of 3 rows from above:

smiles	measure	dose	protein	result
CC(C)N=C(N)c1ccc(-c2ccc(-c3ccc(C(N)=NC(C)C)cc3)o2)cc1	IC50	-	Ergosterol	14 µM
COc1ccc(N2C(N)=NC(N)=NC2(C)C)c(OC)c1	IC50	-	DHFR	>90 µM
Nc1nc(N)c2c(OCC(F)(F)F)cccc2n1	IC50	-	DHFR	13 µM